Measurements taken from article PMC6337631, “Effective Tetradentate Compound Complexes against Leishmania spp. that Act on Critical Enzymatic Pathways of These Parasites” (Molecules, 2018).

Legend:
Type in all cases: cell-based
[1] = test system: Leishmania infantum promastigote forms; test: Promastigote test (extracellular forms), L. infantum; conditions: for SI Leishmania infantum Promastigote Forms: IC50 macrophage / IC50 parasite form; for number of times that compound exceeds the reference drug SI, L. infantum Promastigote Forms: in brackets, vs Glucantime
Experimental: (§1) Promastigote forms of three different Leishmania spp., L. donovani (MHOM/PE/84/LC26), L. infantum (MCAN/ES/2001/UCM-10) and L. braziliensis (MHOM/BR/1975/M2904), were cultured in vitro in Medium Trypanosomes Liquid (MTL) supplemented with 10% inactivated foetal calf serum (FCS) in an air atmosphere at 28 °C, in Roux flasks (Corning, Manassas, VA, USA) with a surface area of 75 cm^2, according to [33].
(§2) The compounds and the reference drug Glu were dissolved in DMSO (Panreac, Barcelona, Spain) and tested from 100 µM to 1 µM with 0.1% (v/v) DMSO final concentration in plates. Therefore, controls were prepared including 0.1% (v/v) of this component, as previously described.
(§3) Promastigote forms were collected in the exponential growth phase and seeded at 1 × 10^5 parasites/mL in 24-well microplates (Nunc, Naperville, IL, USA), after adding each compound at concentrations from 100 µM to 1 µM and cultured in 500 μL/well volumes at 28 °C. After 72 h incubation, the leishmanicidal activity was assessed using a Neubauer haemocytometric chamber in comparison with the control cultures. […] Each drug concentration was tested in triplicate in four separate determinations.

[2] = test system: Leishmania infantum amastigote forms; test: Amastigote test (intracellular forms in J774.2 macrophages), L. infantum; conditions: for SI Leishmania infantum Amastigote Forms: IC50 macrophage / IC50 parasite form; for number of times that compound exceeds the reference drug SI, L. infantum Amastigote Forms: in brackets, vs Glucantime
Experimental: as §1, §2
(§4) J774.2 macrophages were grown and seeded at a density of 1 × 10^4 cells/well in 24-well microplates (Nunc) with rounded coverslips on the bottom and cultured for 48 h in humidified 95% air, 5% CO2 atmosphere at 37 °C in Minimal Essential Medium (MEM) with 2 mM glutamine and 20% (v/v) inactivated FCS. Adherent macrophages were infected with metacyclic promastigotes in the stationary growth phase of L. donovani, L. infantum and L. braziliensis at a multiplicity of infection (MOI) ratio of 1:10 and maintained for 24 h. Non-phagocytosed parasites were removed by washing, and after addition of the testing compounds at concentrations from 100 µM to 1 µM, cultured in 500 μL/well volumes. Control cultures were also included. After 72 h incubation, leishmanicidal activity was assessed based on the number of amastigotes in treated and untreated cultures in methanol-fixed and Giemsa-stained preparations by analyzing 500 host cells distributed in randomly chosen microscopic fields. The leishmanicidal effect was calculated as described to determine the leishmanicidal activity in the promastigote forms. Each drug concentration was tested in triplicate in four separate determinations.

[3] = test system: Leishmania braziliensis promastigote forms; test: Promastigote test (extracellular forms), L. braziliensis; conditions: for SI Leishmania braziliensis Promastigote Forms: IC50 macrophage / IC50 parasite form; for number of times that compound exceeds the reference drug SI, L. braziliensis Promastigote Forms: in brackets, vs Glucantime
Experimental: as §1, §2, §3

[4] = test system: Leishmania braziliensis amastigote forms; test: Amastigote test (intracellular forms in J774.2 macrophages), L. braziliensis; conditions: for SI Leishmania braziliensis Amastigote Forms: IC50 macrophage / IC50 parasite form; for number of times that compound exceeds the reference drug SI, L. braziliensis Amastigote Forms: in brackets, vs Glucantime
Experimental: as §1, §2, §4

[5] = test system: Leishmania donovani promastigote forms; test: Promastigote test (extracellular forms), L. donovani; conditions: for SI Leishmania donovani Promastigote Forms: IC50 macrophage / IC50 parasite form; for number of times that compound exceeds the reference drug SI, L. donovani Promastigote Forms: in brackets, vs Glucantime
Experimental: as §1, §2, §3

[6] = test system: Leishmania donovani amastigote forms; test: Amastigote test (intracellular forms in J774.2 macrophages), L. donovani; conditions: for SI Leishmania donovani Amastigote Forms: IC50 macrophage / IC50 parasite form; for number of times that compound exceeds the reference drug SI, L. donovani Amastigote Forms: in brackets, vs Glucantime
Experimental: as §1, §2, §4

| Molecule | SI Leishmania infantum Promastigote Forms [1] | number of times that compound exceeds the reference drug SI, L. infantum Promastigote Forms [1] | SI Leishmania infantum Amastigote Forms [2] | number of times that compound exceeds the reference drug SI, L. infantum Amastigote Forms [2] | SI Leishmania braziliensis Promastigote Forms [3] | number of times that compound exceeds the reference drug SI, L. braziliensis Promastigote Forms [3] | SI Leishmania braziliensis Amastigote Forms [4] | number of times that compound exceeds the reference drug SI, L. braziliensis Amastigote Forms [4] | SI Leishmania donovani Promastigote Forms [5] | number of times that compound exceeds the reference drug SI, L. donovani Promastigote Forms [5] | SI Leishmania donovani Amastigote Forms [6] | number of times that compound exceeds the reference drug SI, L. donovani Amastigote Forms [6] |
| --- | --- | --- | --- | --- | --- | --- | --- | --- | --- | --- | --- | --- |
| CN(C)c1ccnc(CN2CCC[C@H]2[C@@H]2CCCN2Cc2cc(N(C)C)ccn2)c1 [Compound 7] | 14.0 | 17 | 19.1 | 32 | 14.7 | 25 | 20.2 | 40 | 21.2 | 35 | 156.5 | 313 |
| CN1CCN(C)CCN(Cc2ccccn2)CC1 [Compound 9] | 1.4 | 2 | 3.0 | 5 | 1.9 | 3 | 3.3 | 7 | 3.4 | 6 | 6.9 | 14 |
| [Fe^II2(TACN2)(CH3CN)6](ClO4)4 [Compound 2] | 2.0 | 2 | 1.8 | 3 | 2.8 | 5 | 8.4 | 17 | 5.4 | 9 | 6.5 | 13 |
| CN1CCN(C)CCN(Cc2ccccn2)CC1.O=S(=O)([O-])C(F)(F)F.O=S(=O)([O-])C(F)(F)F.[Mn+2] [Compound 3] | 11.6 | 14 | 26.6 | 44 | 10.6 | 18 | 11.3 | 23 | 3.4 | 6 | 8.4 | 17 |
| CN1CCN(C)CCN(Cc2ccccn2)CC1.O=S(=O)([O-])C(F)(F)F.O=S(=O)([O-])C(F)(F)F.[Fe+2] [Compound 1] | 2.1 | 3 | 1.8 | 3 | 1.7 | 3 | 1.8 | 4 | 1.3 | 2 | 3.0 | 6 |
| CN1CCN(C)CCN(CCN2CCN(C)CCN(C)CC2)CC1 [Compound 11, TACN2] | 0.9 | 1 | 2.2 | 4 | 1.2 | 2 | – | – | 2.5 | 4 | 3.8 | 8 |
| meglumine antimoniate [Glucantime, reference compound] | 0.8 | – | 0.6 | – | 0.6 | – | 0.5 | – | 0.6 | – | 0.5 | – |
| c1ccc(CN2CCN(Cc3ccccn3)CCN(Cc3ccccn3)CC2)nc1 [Compound 10] | 48.5 | 61 | 12.1 | 20 | 22.9 | 38 | 10.6 | 21 | 6.8 | 11 | 10.9 | 22 |
| CN(Cc1ccccn1)C1CCCCC1N(C)Cc1ccccn1 (stereo not shown) [Compound 8] | 3.2 | 4 | 11.9 | 20 | 3.6 | 6 | 12.4 | 25 | 8.5 | 14 | 141.2 | 282 |
